# B1: LpdA: E. coli protein (ExPASy P0A9P0), cell-free expressed with C-terminal His-tag (protein, UniProt P0A9P0 2-474, looked up)
# Dihydrolipoyl dehydrogenase: STEIKTQVVVLGAGPAGYSAAFRCADLGLETVIVERYNTLGGVCLNVGCIPSKALLHVAKVIEEAKALAEHGIVFGEPKTDIDKIRTWKEKVINQLTGGLAGMAKGRKVKVVNGLGKFTGANTLEVEGENGKTVINFDNAIIAAGSRPIQLPFIPHEDPRIWDSTDALELKEVPERLLVMGGGIIGLEMGTVYHALGSQIDVVEMFDQVIPAADKDIVKVFTKRISKKFNLMLETKVTAVEAKEDGIYVTMEGKKAPAEPQRYDAVLVAIGRVPNGKNLDAGKAGVEVDDRGFIRVDKQLRTNVPHIFAIGDIVGQPMLAHKGVHEGHVAAEVIAGKKHYFDPKVIPSIAYTEPEVAWVGLTEKEAKEKGISYETATFPWAASGRAIASDCADGMTKLIFDKESHRVIGGAIVGTNGGELLGEIGLAIEMGCDAEDIALTIHAHPTLHESVGLAAEVFEGSITDLPNPKAKKK
# modifications: C-terminal His-tag
# Legend:
# [1] = system: antiHis Ab; assay: Protein-protein interaction on SWNT/CHI array, Förster distance calculation; conditions: distance change after analyte protein antiHis Ab, Förster equation
# [2] = system: Ni-NTA functionalized SWNT/CHI array; assay: On-chip cell-free expression and immobilization of His-tag capture proteins, nIR fluorescence of SWNT/CHI array; conditions: distance change between Ni2+ ion and SWNT after receptor protein, Förster resonance energy transfer equation
molecule,measurement,setting,value
B1,Δd2,[1],−0.03964
same,Δd1,[2],0.1791 nm
